{"source": "patent US20220204592A1", "about": "(VISTERRA, published 2022)", "key": {"[1]": {"molecular_target": "T1, H3 hemagglutinin (A/Brisbane/10/2007) (influenza A virus A/Brisbane/10/2007 …)", "experiment": "cell-based or functional assay"}, "[2]": {"molecular_target": "H3 hemagglutinin of H3N2 strain X-31 (influenza A virus X-31 (H3N2), UniProt P03437 17-566)", "experiment": "cell-based or functional assay"}, "[3]": {"molecular_target": "T2, H3 hemagglutinin (A/Victoria/3/75) (influenza A virus A/Victoria/3/75 (H3N2), UniProt P03435 17-567)", "experiment": "cell-based or functional assay"}, "[4]": {"molecular_target": "T1, H3 hemagglutinin (A/Brisbane/10/2007)", "experiment": "ELISA on coated HA, relative Kd (4-parameter fit)"}, "[5]": {"molecular_target": "H9 hemagglutinin (A/Hong Kong/1073/99) (influenza A virus A/Hong Kong/1073/99 …)", "experiment": "ELISA on coated HA, relative Kd (4-parameter fit)"}, "[6]": {"molecular_target": "T3, H7 hemagglutinin (A/Netherlands/219/2003) (influenza A virus …)", "experiment": "ELISA on coated HA, relative Kd (4-parameter fit)"}, "[7]": {"molecular_target": "H5 hemagglutinin (A/Vietnam/1203/2004) (influenza A virus A/Vietnam/1203/2004 …)", "experiment": "ELISA on coated HA, relative Kd (4-parameter fit)"}, "[8]": {"molecular_target": "H3 hemagglutinin (A/Panama/2007/99) (influenza A virus A/Panama/2007/99 …)", "experiment": "cell-based or functional assay"}, "[9]": {"molecular_target": "T2, H3 hemagglutinin (A/Victoria/3/75)", "experiment": "cell-based or functional assay", "remark": "listed apart in the source"}, "[10]": {"molecular_target": "T3, H7 hemagglutinin …"}}, "data": [{"binder": "Ab A18 (antibody, V domains shown) VH: EVQLLESGGGLVKPGQSLKLSCAASGFTFTSYGMHWVRQPPGKGLEWVAVISYDGSYKYYADSVQGRFTISRDNSKNTLYLQMNSLRAEDTAVYYCAKDSRLRSLLYFEWLSQGYFNPWGAGTTLTVSS VL: EIVMTQSPDSLAVSLGERATINCKSSQSVTYNYKNYLAWYQQKPGQPPKLLIYWASTRESGVPDRFSGSGSGTDFTLTISSLQAEDVAVYYCQQYYRTPPTFGGGTKLDIKG", "values": [{"measurement": "IC50 (RT-PCR, neutralisation)", "setting": "[1]", "value": "~7", "unit": "µg/mL"}, {"measurement": "IC50 (qPCR quantification of X-31 viral RNA)", "setting": "[2]", "value": "< 10", "unit": "µg/mL"}, {"measurement": "IC50 (RT-PCR, neutralisation)", "setting": "[3]", "value": 2, "unit": "µg/mL"}, {"measurement": "Kd", "setting": "[4]", "value": 0.459, "unit": "nM"}, {"measurement": "Kd", "setting": "[5]", "value": 0.067, "unit": "nM"}, {"measurement": "Kd", "setting": "[6]", "value": 0.845, "unit": "nM"}, {"measurement": "Kd", "setting": "[7]", "value": 0.068, "unit": "nM"}]}, {"binder": "Ab 044 (antibody, V domains shown) VH: QVQLLETGGGLVKPGQSLKLSCAASGFTFTSYAMHWVRQPPGKGLEWVAVVSYDGNYKYYADSVQGRFTISRDNSKNTLYLQMNSLRAEDTAVYYCAKDSRLRSLLYFEWLSQGYFNPWGQGTTLTVSS VL: DIQMTQSPSSLSASVGDRVTITCRSSQSITFDYKNYLAWYQQKPGKAPKLLIYWGSYLESGVPSRFSGSGSGTDFTLTISSLQPEDFATYYCQQHYRTPPSFGQGTKVEIK", "values": [{"measurement": "EC50, Neutral Red (CPE inhibition)", "setting": "[8]", "value": 11, "unit": "µg/mL"}, {"measurement": "EC50, Neutral Red (CPE inhibition)", "setting": "[9]", "value": 4.9, "unit": "µg/mL"}]}, {"binder": "Ab 028 (antibody, V domains shown) VH: EVQLLESGGGLVKPGQSLKLSCAASGFTFSSYGMHWVRQPPGKGLEWVAVVSYDGSNKYYADSVQGRFTISRDNSKNTLYLQMNSLRAEDTAVYYCAKDTKLRSLLYFEWLSSGLLDYWGQGAMVTVSS VL: EIVMTQSPDSLAVSLGERATINCKSSQSVTFDYKNYLAWYQQKPGQPPKLLIYWASTRESGVPDRFSGSGSGTDFTLTISSLQAEDVAVYYCQQYYRTPPTFGGGTKLDIK", "values": [{"measurement": "EC50 (read off the curve)", "setting": "[10]", "value": "~7", "unit": "µg/mL"}]}]}
